According to patent US7348421B1, “Methods for production of p-hydroxybenzoate in bacteria” (North Carolina State University, priority 2000, dated 2008):
Some results come without the dose or concentration used.

Test system: Pseudomonas putida DOT-T1E
Assay: Growth on minimal medium with different carbon sources
Format: cell-based
Conditions: substance as carbon source in liquid M9 minimal medium, exponential growth phase

Q: How did the Doubling time turn out when `O=C(O)CC(O)(CC(=O)O)C(=O)O` [Citrate] was run?
A: Its Doubling time is 92 min.
